Experimental data from publication PMC6271975, “Structure-Activity Relationship Study of Sesquiterpene Lactones and Their Semi-Synthetic Amino Derivatives as Potential Antitrypanosomal Products” (Molecules, 2014).

System: T. b. rhodesiense STIB 900 bloodstream forms
Assay: In vitro antitrypanosomal Alamar Blue assay
Assay type: cell-based, Trypanosoma brucei rhodesiense
Conditions: IC50 against L6 cells divided by IC50 against STIB 900 strain

C=C1C(=O)O[C@@H]2/C=C(/C)[C@@H](O)C/C=C(\C)C[C@H](OC(=O)/C(C)=C\C)[C@@H]12 [Compound 14, Nobilin]
SI (Selectivity Index): 3.4
